# Measured values taken from PubChem BioAssay AID686976 (The Scripps Research Institute Molecular Screening Center, 2013).
# Only a part is listed here, and it is no random draw. Activity calls are given as the source filed them. No stated cut-off is given here; in the data, active means inhibition above about 30%; inactive means the rest.
# Tested on: CCHF virus ovarian tumor domain protease (vOTU, L protein)
# Assay: CCHFV vOTU protease inhibitors, confirmation, biochemical, Pep-AMC substrate, fluorescence (AID 686976)
# Settings: Recombinant CCHFV vOTU, at 11.5 µM, active compounds read high
row,Structure (SMILES),inhibition
1,O=[N+]([O-])c1cc([N+](=O)[O-])c(Nc2ccccn2)c([N+](=O)[O-])c1,inactive: 14.5%
2,Cc1nc2ccc3ccccc3c2s1.O=[N+]([O-])c1cc([N+](=O)[O-])c(O)c([N+](=O)[O-])c1,inactive: -10.7%
3,CC(C)(C)c1ccc(OP(C)(=O)Nc2ccc(SC(F)(F)F)cc2)cc1 (stereo not drawn),inactive: -2.23%
